Measurements reported in PubChem BioAssay AID1259414 (Drosophila RNAi Screening Center, 2018).
In all, the deposit lists about 24,000 reagents; shown is a random part of those that have a named target and a result. Over the whole deposit, about 1,210 (5%) were called active. 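Inactive calls also include excluded dsRNAs with several or no targets, genes unexpressed in JW18, and well A1, regardless of score.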 A number with no mark means an inactive call. A plus sign joins genes that one reagent is predicted to hit.

- Aim: 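Host factors increasing or decreasing Wolbachia levels in cultured fly cells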 (primary screen)
- Cell system: Drosophila JW18 cells infected with Wolbachia
- Reagent: long dsRNA against Drosophila genes, 0.25 µg dsRNA per well of a 384-well plate
- Time to read-out: 5 days
- Treatment: cells persistently infected with Wolbachia before knock-down; no added drug
- Detection: 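Imaged fluorescence in situ signal for Wolbachia 23S rRNA per DAPI-counted host cell, given as a robust z-score within each plate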
- Scale: Wolbachia per cell robust z: higher = more Wolbachia per host cell than the plate typical
- Hit rule: 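Active if absolute robust z reaches 1.5 in two or more of three replicates, leaving out multi- or no-target dsRNAs, genes unexpressed in JW18 and A1 wells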

Ser (GeneID 43275) [DRSC16856] gave Wolbachia per cell robust z, rep 1 = -1.32; Wolbachia per cell robust z, rep 2 = -0.0469; Wolbachia per cell robust z, rep 3 = -0.0888.
After knock-down of Ser (GeneID 43275) [DRSC25494] the results were Wolbachia per cell robust z, rep 1 = -0.267; Wolbachia per cell robust z, rep 2 = -0.726; Wolbachia per cell robust z, rep 3 = 0.262.
Against CG1523 (GeneID 43400) [DRSC15033], the values are Wolbachia per cell robust z, rep 1 = 0.323; Wolbachia per cell robust z, rep 2 = -0.89; Wolbachia per cell robust z, rep 3 = 0.08.
CG1523 (GeneID 43400) [DRSC26315] showed Wolbachia per cell robust z, rep 1 = 0.643; Wolbachia per cell robust z, rep 2 = 1.26; Wolbachia per cell robust z, rep 3 = -4.34.
Cyp4p1 (GeneID 45524) [DRSC07372] showed Wolbachia per cell robust z, rep 1 = 0.395; Wolbachia per cell robust z, rep 2 = -0.296; Wolbachia per cell robust z, rep 3 = 0.322.
With knock-down of Cyp4p1 (GeneID 45524) [DRSC26036] the results were Wolbachia per cell robust z, rep 1 = 1.26; Wolbachia per cell robust z, rep 2 = 0.444; Wolbachia per cell robust z, rep 3 = -0.0879.
With knock-down of CG14605 (GeneID 40867) [DRSC12549], the record shows Wolbachia per cell robust z, rep 1 = 0.16; Wolbachia per cell robust z, rep 2 = 0.623; Wolbachia per cell robust z, rep 3 = 1.03.
For CG14605 (GeneID 40867) [DRSC29195] the deposit lists Wolbachia per cell robust z, rep 1 = 1.01; Wolbachia per cell robust z, rep 2 = -0.593; Wolbachia per cell robust z, rep 3 = 1.02.
CG42570 (GeneID 8674011) [DRSC09391] showed Wolbachia per cell robust z, rep 1 = -0.383; Wolbachia per cell robust z, rep 2 = 0.819; Wolbachia per cell robust z, rep 3 = -0.0266.
After knock-down of CG42397 (GeneID 8673976) [DRSC40606] the results were Wolbachia per cell robust z, rep 1 = 0.093; Wolbachia per cell robust z, rep 2 = -0.467; Wolbachia per cell robust z, rep 3 = 0.309.
With knock-down of CG10462 (GeneID 35260) [DRSC02058] the results were Wolbachia per cell robust z, rep 1 = -3.94; Wolbachia per cell robust z, rep 2 = 1.39; Wolbachia per cell robust z, rep 3 = 0.557.
With knock-down of CG34196 (GeneID 5740437) [DRSC38864] the results were Wolbachia per cell robust z, rep 1 = -5.02; Wolbachia per cell robust z, rep 2 = -3.41; Wolbachia per cell robust z, rep 3 = -1.2.
Depletion of CG32437 (GeneID 40366) [DRSC11760] gave: Wolbachia per cell robust z, rep 1 = -0.92; Wolbachia per cell robust z, rep 2 = -0.277; Wolbachia per cell robust z, rep 3 = 0.294.
CG32437 (GeneID 40366) [DRSC22020] scored Wolbachia per cell robust z, rep 1 = -2.8; Wolbachia per cell robust z, rep 2 = -0.401; Wolbachia per cell robust z, rep 3 = 1.07.
For CG32437 (GeneID 40366) [DRSC27187], the entry reads Wolbachia per cell robust z, rep 1 = 0.722; Wolbachia per cell robust z, rep 2 = 1.32; Wolbachia per cell robust z, rep 3 = 1.17.
Knock-down of CG17287 (GeneID 36939) [DRSC06659] resulted in: Wolbachia per cell robust z, rep 1 = -3.49; Wolbachia per cell robust z, rep 2 = -0.553; Wolbachia per cell robust z, rep 3 = 0.446.
CG6937 (GeneID 42662) [DRSC16140] scored Wolbachia per cell robust z, rep 1 = 0.924; Wolbachia per cell robust z, rep 2 = -0.0573; Wolbachia per cell robust z, rep 3 = 0.0163.
CG6937 (GeneID 42662) [DRSC23708] showed Wolbachia per cell robust z, rep 1 = 0.421; Wolbachia per cell robust z, rep 2 = 0.128; Wolbachia per cell robust z, rep 3 = 0.59.
RpS2 (GeneID 34309) [DRSC03614] showed Wolbachia per cell robust z, rep 1 = 3.94 (active); Wolbachia per cell robust z, rep 2 = 3.31; Wolbachia per cell robust z, rep 3 = 3.49.
For RpS2 (GeneID 34309) [DRSC26760], the values are Wolbachia per cell robust z, rep 1 = 2.55 (active); Wolbachia per cell robust z, rep 2 = 3.12; Wolbachia per cell robust z, rep 3 = 4.78.
Knock-down of Hsp70Bb + Hsp70Ba + Hsp70Bbb [DRSC28114] resulted in: Wolbachia per cell robust z, rep 1 = 0.0361; Wolbachia per cell robust z, rep 2 = 0.0844; Wolbachia per cell robust z, rep 3 = 0.21.
CG34219 (GeneID 5740281) [DRSC38680] scored Wolbachia per cell robust z, rep 1 = 0.841; Wolbachia per cell robust z, rep 2 = 1.72; Wolbachia per cell robust z, rep 3 = 2.21.
Silencing of CG33725 (GeneID 3772600) [DRSC38844] came out at: Wolbachia per cell robust z, rep 1 = 0.275; Wolbachia per cell robust z, rep 2 = -0.258; Wolbachia per cell robust z, rep 3 = 0.228.
For ewg (GeneID 30975) [DRSC18773], the entry reads Wolbachia per cell robust z, rep 1 = -0.906; Wolbachia per cell robust z, rep 2 = -5.51; Wolbachia per cell robust z, rep 3 = -0.493.
Silencing of ewg (GeneID 30975) [DRSC26141] came out at: Wolbachia per cell robust z, rep 1 = -0.119; Wolbachia per cell robust z, rep 2 = -0.738; Wolbachia per cell robust z, rep 3 = -1.89.

In a second layout: results already given
| predicted target | amplicon | Wolbachia per cell robust z, rep 1 | Wolbachia per cell robust z, rep 2 | Wolbachia per cell robust z, rep 3 |
| --- | --- | --- | --- | --- |
| CG17287 (GeneID 36939) | DRSC06659 | -3.49 | -0.553 | 0.446 |
| CG6937 (GeneID 42662) | DRSC16140 | 0.924 | -0.0573 | 0.0163 |
| CG6937 (GeneID 42662) | DRSC23708 | 0.421 | 0.128 | 0.59 |
| RpS2 (GeneID 34309) | DRSC03614 | 3.94 (active) | 3.31 | 3.49 |
